Pooled drug test results. Numbers come from NIAID ChemDB, via PubChem.

All rows: whole-cell or culture tests; agent: HIV-1; endpoint: EC50

ECn is the concentration giving n% inhibition of infection, replication or growth.

SMILES,mutations,cell line,strain,method,conditions,value
CCc1c(C(=O)c2cccc3ccccc23)n(CC=C(C)C)c(=O)[nH]c1=O,,MT-4,IIIB,cytopathic effect / MTT,,6.6 µM
O=C1C=C2[C@@H]3O[C@@H]3[C@@H]3C[C@@]2(O1)[C@H]1CCCN31,,MT-4,NL4-3,MTT / absorbance,,85.5 µM
COc1cc2c(OC(C)=O)c3c(c(-c4ccc5c(c4)OCO5)c2cc1OC)C(=O)OC3,,293T,NL4-3,luciferase,pseudotyped,>3.4 µM
Cc1c(Sc2ccccc2)n(COC(CF)COCc2ccccc2)c(=O)[nH]c1=O,,CEM,,,,0.05–100 µM
C=C(C)[C@]12C[C@@H](C)[C@@]34OC5(CCCCCCC[C@H](C)[C@H]6[C@H](C)[C@H](OC(=O)c7ccccc7)[C@@](O)([C@H](O)[C@@]7(CO)O[C@H]7[C@H]3[C@H]1O5)[C@@H]64)O2,,MT-4,NL4-3,luciferase,,0.00044 µM
Cc1cn([C@H]2C[C@H](N=[N+]=[N-])[C@@H](CO)O2)c(=O)[nH]c1=O,,PBMC,RF,p24,,0.001 µM
Cc1cc(C)c2c(c1)COP(=O)(OC[C@H]1O[C@@H](n3cc(C)c(=O)[nH]c3=O)C[C@@H]1N=[N+]=[N-])O2,,CEM + CEM/O,,,,0.007 µM
Cc1ccc2snc(N=Cc3ccccc3O)c2c1,,MT-4,IIIB,cytopathic effect / MTT,,>7 µM
NC(=O)c1sc2cncc(-c3ccc4c(c3)CCO4)c2c1N,,U1,,p24 / ELISA,,0.091 µM
O=C1C=C2C(C3CC4=C([C@@H]5CC6=CC(=O)O[C@@]67C[C@@H]5N5CCC[C@@H]57)C(=O)O[C@@]45C[C@@H]3N3CCC[C@@H]35)=C[C@@H]3C[C@@]2(O1)[C@H]1CCCN31,,MT-4,NL4-3,MTT / absorbance,,122 µM
Cc1cn(COC(CN)CO[Si](C)(C)C(C)(C)C(C)C)c(=O)[nH]c1=O,,CEM,,,,0.05–100 µM
N[C@@H](CCC(=O)N[C@@H](CS)C(=O)NCC(=O)O)C(=O)O,,U-937,IIIB,p24,,>3000 µM
CC(C)[C@@H](C)/C=C/[C@@H](C)[C@H]1CCC2C3=C(CC[C@@]21C)[C@@]1(C)CC[C@H](O)CC1=CC3=O,,SupT1,,luciferase,pseudotyped,5.9 µM
C(=N\c1nccs1)/c1ccccc1,,MT-4,IIIB,cytopathic effect / MTT,,>100 µM
COC(=O)c1cc2c(c(OC)c1-c1ccc(N(C)C)cc1)OCO2,E138K,C8166,NL4-3,antigen,,17.84 µM
COC(=O)[C@@H](C)CC(=O)NC(=O)c1cn([C@@H](Cc2ccccc2)c2cc(OC)cc(=O)o2)c(Cc2ccccc2)cc1=O,,TZM-bl,SF162,XTT / absorbance,,>50 µM
NC(=O)c1cc2c(-c3ccc4c(c3)CCO4)cncc2s1,,PBMC,BaL,p24 / ELISA,,0.0488 µM
CNCc1ccc2c(c1)[C@H](NC(=O)C(=O)Nc1ccc(Cl)c(F)c1)[C@@H](CN=C(N)N)[C@@H]2CCCO,,Cf2Th-CD4/CCR5,,luciferase / entry,,>100 µM
CC(C)[C@@H](C)/C=C/[C@@H](C)C1CCC2=C3C(CC[C@@]21C(=O)O)[C@@]1(C)CC[C@H](OC(=O)[C@@H](N)[C@@H](OS(=O)(=O)O)C(C)C)C[C@@]12OC2[C@@H]3O,,SupT1,,luciferase,pseudotyped,1.9 µM
CC(C)OC(=O)[C@H](C)NP(=O)(CO[C@H](C)Cn1cnc2c(N)ncnc21)Oc1ccccc1,,MT-2,IIIB,XTT / absorbance,,0.01 µM
COc1cc(C=Nc2nsc3ccccc23)ccc1O,,MT-4,IIIB,cytopathic effect / MTT,,>6 µM
COc1cc2c(OC3O[C@H](C)[C@@H](O)[C@H](OC(=O)C4CC4)[C@H]3O)c3c(c(-c4ccc5c(c4)OCO5)c2cc1OC)C(=O)OC3,,293T,NL4-3,luciferase,pseudotyped,>0.0267 µM
O=C1C=C2C[C@H](C3=C4C=C[C@@H]5C[C@@]4(OC3=O)[C@H]3CCCN53)[C@@H]3C[C@@]2(O1)[C@H]1CCCN31,,MT-4,NL4-3,MTT / absorbance,,7.8 µM
Cc1cccc(C)c1OCC(=O)N[C@@H](Cc1ccccc1)[C@@H](O)C[C@H](Cc1ccccc1)NC(=O)[C@H](C(C)C)N1CCCNC1=O,,MT-4,IIIB,cytopathic effect / MTT,,0.033 µM
O=c1[nH]c(=O)n([C@@H]2O[C@@H](CO)C[C@H]2F)cc1Cl,,PBM,,,,>100 µM
CCc1c(Cc2cc(C)cc(C)c2)n(COCc2cn([C@H]3CC(n4cc(C)c(=O)[nH]c4=O)OC3CO)nn2)c(=O)[nH]c1=O,,MT-4,WILD TYPE,MTT,,0.08 µM
Nc1nc(N)c2ncn([C@H]3CO[C@@H](CO)O3)c2n1,,MT-2,IIIB,,,0.2 µM
Nc1nc2c(ncn2[C@H]2O[C@@H](CO)C[C@H]2F)c(=O)[nH]1,,PBM,,,,>100 µM
O=c1[nH]cnc2c1ncn2[C@H]1CC[C@@H](CO)O1,,MT-4,IIIB,cytopathic effect / MTT,,5.37 µM
CCc1c(Sc2cccc3ccccc23)nc(SCC(=O)c2ccc(F)cc2F)[nH]c1=O,,MT-4,IIIB,cytopathic effect / MTT,,0.38 µM
Nc1ccn([C@H]2CC[C@@H](CO)O2)c(=O)n1,,MT-4,ROD,MTT,,0.123 µg/mL
Nc1ccn([C@H]2CC[C@@H](CO)O2)c(=O)n1,,MT-2,IIIB,cytopathic effect / MTT,,~0.32 µg/mL
COc1cc(OC)c2c(O)c3c(=O)cc(C)oc3cc2c1,,TZM-bl,SF162,XTT / absorbance,,>50 µM
Nc1ccn([C@H]2CC[C@@H](CO)O2)c(=O)n1,,PBMC,HXB2,p24,,0.01 µM
COc1ccc(C=Nc2nsc3ccc(C)cc23)cc1,,MT-4,IIIB,cytopathic effect / MTT,,>5 µM
CC(C)(C)NC(=O)[C@@H]1C[C@@H]2CCCC[C@@H]2CN1C[C@@H](O)[C@H](Cc1ccccc1)NC(=O)[C@H](CC(N)=O)NC(=O)c1ccc2ccccc2n1,,C8166,IIIB(Ro3G),,,0.0218 µM
C/C=C/C=C/C(=O)C1=C[C@@]2(C)C3\C(=C(O)/C=C/C=C/C)C(O)=C(C)C(=O)[C@@]3(C)O[C@@]2(O)[C@@](C)(O)C1=O,,SupT1,,luciferase,pseudotyped,73.1 µM
C=C(C)[C@H]1[C@@H]2OC3(CCCCCCCCC)O[C@@H]2[C@@H]2[C@@H]4O[C@]4(CO)[C@@H](O)[C@]4(O)C(=O)C(C)=C[C@H]4[C@@]2(O3)[C@@H]1C,,MT-4,NL4-3,luciferase,,0.00069 µM
C[C@H](Cn1cnc2c(N)ncnc21)OCP(=O)(O)N[C@H](C)C(=O)O,,MT-2,IIIB,XTT / absorbance,,10 µM
CCc1c([Se]c2ccccc2)n(COCc2ccccc2)c(=O)[nH]c1=O,,MT-2,Nevirapine-resistant,cytopathic effect,,0.38 ± 0.22 µM
CCc1c(C(=O)c2cccc3ccccc23)n(COCCOC)c(=O)[nH]c1=O,,MT-4,IIIB,cytopathic effect / MTT,,5.71 µM
CC(C)=CCN1Cc2cccc3[nH]c(=S)n(c23)C[C@@H]1C,,MT-2,TIBO-RS,cytopathic effect,,>10 µM
Nc1ncnc2c1ncn2[C@H]1O[C@@H](CO)C[C@H]1F,,PBM,,,,>100 µM
CN(C)c1ccnc2sc(C(N)=O)c(N)c12,,U1,,p24 / ELISA,,<0.28 µM
Cc1c(Sc2ccccc2)n(COCCO)c(=O)[nH]c1=O,,MT-4,IIIB,cytopathic effect / MTT,,5.06 µM
CC(C)C(C)/C=C/C(C)[C@H]1CCC2C3C[C@@H](O)[C@@]4(O)C[C@@H](O)CC[C@]4(C)C3CC[C@@]21C,,SupT1,,luciferase,pseudotyped,3.8 µM
COCc1cc(C)nc2sc(C(N)=O)c(N)c12,,U1,,p24 / ELISA,,<0.52 µM
O=C(O)/C=C/c1ccc(O)c(O)c1,,,,,,>1000 µM
Cc1cn([C@H]2C[C@H](N=[N+]=[N-])[C@@H](COP3(=O)OCc4ccccc4O3)O2)c(=O)[nH]c1=O,,CEM + CEM/O,,,,0.004 µM
NC(=O)c1sc2cncc(N3CCc4ccccc4C3)c2c1N,,U1,,p24 / ELISA,,0.013 µM
COc1cc2c(OC3O[C@H](C)[C@@H](O)[C@H](OC(=O)c4ccc(Cl)cc4)[C@H]3O)c3c(c(-c4ccc5c(c4)OCO5)c2cc1OC)C(=O)OC3,,293T,NL4-3,luciferase,pseudotyped,>0.3365 µM
Cc1cn([C@H]2C[C@H](N=[N+]=[N-])[C@@H](CO)O2)c(=O)[nH]c1=O,,Jurkat cells,NL4-3,p24 / ELISA,,0.003 µM
Cc1c(-c2cnccn2)ssc1=S,,H9,IIIB,MTT / p24,,~10 µM
COc1ccc(-c2cncc3sc(C(N)=O)cc23)cc1,,Jurkat cells,NL4-3,p24 / ELISA,,0.0045 µM
O=C1N[C@H](C(=O)O)CS1,,U1,,p24,,>3000 µM
O=c1ccn([C@@H]2O[C@H](CO)C[C@@H]2F)c(=O)[nH]1,,PBM,,,,155 µM
NC(=O)c1cc2c(-c3ccc4ccccc4c3)cncc2s1,,Jurkat cells,NL4-3,p24 / ELISA,,0.0034 µM
COC(=O)N[C@H](C(=O)N[C@@H](Cc1ccccc1)[C@@H](O)CN(Cc1ccc(-c2ccccn2)cc1)NC(=O)[C@@H](NC(=O)OC)C(C)(C)C)C(C)(C)C,,MT-4,IIIB,cytopathic effect / MTT,,0.008 µM
COc1ccc(-c2csc(/N=C/c3ccc(O)c(OC)c3)n2)cc1,,MT-4,IIIB,cytopathic effect / MTT,,>100 µM
O=C(/C=C/c1ccc(O)c2c1[C@H](C(=O)O[C@H](Cc1ccc(O)c(O)c1)C(=O)O)[C@@H](c1ccc(O)c(O)c1)O2)O[C@H](Cc1ccc(O)c(O)c1)C(=O)O,,H9,,,,6.9 µM
Cc1ccnc2c1NC(=O)c1cccnc1N2C1CC1,,PBMC,CLADE D,cytopathic effect / XTT,clinical isolate,0.1 µM
Clc1cccc(/C=N/c2nccs2)c1,,MT-4,IIIB,cytopathic effect / MTT,,>100 µM
Cc1cn([C@H]2O[C@@H](CO)C[C@H]2F)c(=O)nc1N,,PBM,,,,>100 µM
CC(C)Nc1ccc(Cl)nc1N(C)C1CCN(C(=O)c2cc3cc(NS(C)(=O)=O)ccc3[nH]2)CC1,,,NL4-3,,,0.6 µg/mL
O=C1C=C2C([C@H]3C([C@H]4CC5=CC(=O)O[C@@]56C[C@@H]4N4CCC[C@@H]46)C4=CC(=O)O[C@@]45C[C@@H]3N3CCC[C@@H]35)=C[C@@H]3C[C@@]2(O1)[C@H]1CCCN31,,MT-4,NL4-3,MTT / absorbance,,108 µM
COc1ccc(OC)c(CCNC(=S)Nc2ccc(Br)cn2)c1,,PBMC,RT-Y181C K103N A17 variant NNRTI-resistant,p24,,8 µM
CCc1c(Sc2ccccc2)nc(SCC(=O)c2ccc(OC)cc2)[nH]c1=O,,MT-4,IIIB,cytopathic effect / MTT,,6.72 µM
Cc1cn([C@H]2C[C@H](N=[N+]=[N-])[C@@H](COP3(=O)OCc4cc(Cl)ccc4O3)O2)c(=O)[nH]c1=O,,CEM + CEM/O,,,,0.005 µM
CC(C)Nc1cccnc1N1CCN(C(=O)c2cc3ccccc3[nH]2)CC1,,MT-2,LAV,,,0.07 µM
C=CCOC(=O)O[C@@H]1COC(Oc2c3c(c(-c4ccc5c(c4)OCO5)c4cc(OC)c(OC)cc24)C(=O)OC3)[C@H](OC(=O)OCC=C)[C@H]1OC(=O)N(C)C,,293T,NL4-3,luciferase,pseudotyped,>0.1453 µM
CCc1c(C(=O)c2cccc3ccccc23)n(CC(=O)OC)c(=O)[nH]c1=O,,MT-4,IIIB,cytopathic effect / MTT,,1.12 µM
CC(C)[C@@H](C)/C=C/[C@@H](C)[C@H]1CCC2C3=CC(=O)[C@@]4(O)C[C@@H](O)CC[C@]4(C)C3CC[C@@]21C,,SupT1,,luciferase,pseudotyped,12.4 µM
COc1ccc2c(c1)COP(=O)(OC[C@H]1O[C@@H](n3cc(C)c(=O)[nH]c3=O)C[C@@H]1N=[N+]=[N-])O2,,CEM + CEM/O,,,,0.006 µM
Cc1ccc2snc(N=Cc3cccc(Cl)c3)c2c1,,MT-4,IIIB,cytopathic effect / MTT,,>7 µM
Cc1csc(NC(=S)N[C@H](C)c2ccccc2)n1,,PBMC,IIIB,p24,,<0.001 µM
C/C=C/C=C/C(=O)C1=C(C)C(=O)C(=O)C(C)=C1O,,SupT1,,luciferase,pseudotyped,4.7 µM
Cc1c(Sc2ccccc2)n(COC(CN=[N+]=[N-])COCc2ccccc2)c(=O)[nH]c1=O,,CEM,,,,0.05–100 µM
COc1cc2c(OC3O[C@H](CO)[C@@H]4OC(C)(C)O[C@@H]4[C@H]3O)c3c(c(-c4ccc5c(c4)OCO5)c2cc1OC)C(=O)OC3,,293T,NL4-3,luciferase,pseudotyped,>0.0527 µM
COc1ccc(-c2cncc3sc(C(N)=O)c(N)c23)cc1,,U1,,p24 / ELISA,,0.057 µM
Cc1c(O)cccc1C(=O)N[C@@H](CSc1ccccc1)[C@H](O)CN1C[C@H]2CCCC[C@H]2C[C@H]1C(=O)NC(C)(C)C,,MT-4,IIIB,cytopathic effect / MTT,,0.054 µM
C[C@H](Cn1cnc2c(N)ncnc21)OCP(=O)(O)O,,MT-2,IIIB,XTT / absorbance,,5 µM

Lines come from different laboratories, so protocols vary. a–b is a range or a potency band. Blank or dashed fields: not listed here.